Results from patent US7235263B2, “Processes for controlling microbial organic compound production” (Kimberly-Clark Worldwide, Inc., priority 2001, dated 2007).

Test: Ammonia content of urine:TSB mixture without bacteria (ammonia probe)
Conditions: no bacteria

OC[C@@H](O)[C@@H](O)[C@H](O)[C@H](O)CO [Mannitol, mannitol, reference compound]
Ammonia Produced (n = 3) (Table 7, 10% mannitol (w/v) in urine:TSB): 42.6 ± 0.1 ppm

mannitol peroxide
Ammonia Produced (n = 3) (Table 3, 5% (w/v) mannitol peroxide in urine:TSB): 12.3 ± 0.5 ppm
Ammonia Produced (n = 3) (Table 3, 10% mannitol peroxide in urine:TSB): 13.2 ± 0.9 ppm
